Results deposited as PubChem BioAssay AID504761 (Drosophila RNAi Screening Center, 2011)

Aim: 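Fly genes whose silencing reduces dengue virus type 2 infection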 (primary screen)
Cells: D.Mel-2 cells from Drosophila
Reagents: long dsRNA against Drosophila genes
Challenge: infection with dengue virus type 2; dose and infection time not stated
Read-out: 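Per well on two replicate plates, imaging gave the percent of cells positive for viral envelope protein, ranked by infection, and a nuclear count of cells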
Direction: infection score: higher = more virus-infected cells
Hit rule: 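Very low infection ranking in both replicate wells (chance probability at most 0.065), then a retest showing infection dropped 1.5-fold or more at p below 0.05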
Calls: active = confirmed: knock-down lowers infection; inactive = not picked or not confirmed
In all, the deposit lists about 22,000 reagents; below is an unselected part of those with a known target gene and a result. Over the whole deposit, 116 (0.52%) got an active call. 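Calls depend on retest data that are not deposited; infection was ranked per plate without normalising between plates; the unit of the infection score is not given.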 Unmarked entries are inactive. Further read-outs or replicates are left out here. Not given: the amount of reagent, the time to read-out.

Target gene	dsRNA	infection score, replicate 1	infection score, replicate 2
Taf4 (GeneID 39765)	DRSC11297	0.98 (active)	2.76
Taf4 (GeneID 39765)	DRSC25921	3.69	11.4
BHD (GeneID 38793)	DRSC11017	5.32	4.23
BHD (GeneID 38793)	DRSC22833	2.29	28.6
BHD (GeneID 38793)	DRSC27469	13	19.1
bys (GeneID 31701)	DRSC18748	22.7	12.5
bys (GeneID 31701)	DRSC29013	20.4	20.1
Ids (GeneID 38423)	DRSC08222	0.49	1.92
CG32073 (GeneID 326191)	DRSC09087	2.96	2.91
CG32073 (GeneID 326191)	DRSC09894	2.36	6.16
Gs2 (GeneID 32087)	DRSC20250	20.6	7.92
Gs2 (GeneID 32087)	DRSC26818	6.83	6.1

3 entries already listed, arranged by “infection score, replicate 2”, ascending.
Target gene	dsRNA	infection score, replicate 1	infection score, replicate 2
CG32073 (GeneID 326191)	DRSC09087	2.96	2.91
CG32073 (GeneID 326191)	DRSC09894	2.36	6.16
Gs2 (GeneID 32087)	DRSC20250	20.6	7.92

The list goes on:
Target gene	dsRNA	infection score, replicate 1	infection score, replicate 2
Nrd1 (GeneID 32143)	DRSC19830	2.38	1.96
Evi5 (GeneID 32088)	DRSC19421	3.79	2.87
Evi5 (GeneID 32088)	DRSC27334	5.54	20.3
CG15024 (GeneID 50172)	DRSC08478	3.81	4.74
CG16863 (GeneID 34784)	DRSC01892	2.2	1.13
CG30053 (GeneID 246419)	DRSC07260	6.64	6.64
Arr2 (GeneID 38993)	DRSC09670	1	1.14
Ggamma1 (GeneID 35881)	DRSC07435	1.86	4.36
CG7194 (GeneID 38933)	DRSC10784	1.2	2.48
CG4617 (GeneID 31657)	DRSC18377	7.76	2.42
CG4617 (GeneID 31657)	DRSC23828	3.83	16.5
